In patent publication US11617740B2, “Chemical inhibitors of Mycobacterium tuberculosis DosRST signaling and persistence” (priority 2017, dated 2023) one finds EC50 data, which are given here for 25 compounds.

By EC50 is commonly meant the concentration at which the effect is half-maximal. A higher EC50 goes with a less potent agent.

This assay deals with DosRST pathway, CDC1551 (hspX′::GFP) reporter strain. In words: microbe, parasite or virus in culture. The note with it: Mycobacterium tuberculosis, doses 200 μM to 0.328 μM. Type of assay: cell-based.
[1] abbreviates: Table 5, fluorescence inhibition.
The mark [2] stands for this setting: Table 4, fluorescence inhibition.

`O=C(NCCc1ccccc1)Nc1ccno1` [MSU-42004, 3-(1,2-oxazol-5-yl)-1-(2-phenylethyl)urea] showed an EC50 under setting [1] of 2360 nM.

For the compound `CC(C)CNC(=O)Nc1ccno1` [MSU-41542, 3-(2-methylpropyl)-1-(1,2-oxazol-5-yl)urea], the concentration giving a half-maximal response (EC50) under setting [1] amounted to 1340 nM.

Under setting [1], `O=C(Nc1ccccc1)Nc1ccno1` [MSU-33189, 3-(1,2-oxazol-5-yl)-1-phenylurea] registered an EC50 of 630 nM.

For `O=C(Nc1ccno1)Nc1ccno1` [MSU-39444, 1,3-bis(1,2-oxazol-5-yl)urea], under setting [2], the concentration for a half-maximal effect (EC50) came out at 1700 nM.

`O=C(Nc1ccc(Cl)cn1)Nc1ccno1` [MSU-39450, 1-(5-chloropyridin-2-yl)-3-(1,2-oxazol-5-yl)urea]: the concentration giving a half-maximal response (EC50) runs as follows: under setting [2], 1950 nM; under setting [1], 1950 nM.

`O=C(Nc1ccon1)Nc1ccc(Cl)cc1Cl` [HC106C]: the EC50 under setting [2] was above 200000 nM.

Under setting [1], `O=C(Nc1ccc(Br)cc1)Nc1ccno1` [MSU-41464, 1-(4-bromophenyl)-3-(1,2-oxazol-5-yl)urea] displayed an EC50 of 1200 nM.

As for `O=C(Nc1ccc(COc2ccccc2)cc1)Nc1ccno1` [MSU-41545, 3-(1,2-oxazol-5-yl)-1-[4-(phenoxymethyl)phenyl]urea], a half-maximal effect under setting [1] (EC50) was put at 4750 nM.

Under setting [1], `O=C(Nc1ccc(C(F)(F)F)cc1)Nc1ccno1` [MSU-41463, 3-(1,2-oxazol-5-yl)-1-[4-(trifluoromethyl)phenyl]urea] returned an EC50 of 1670 nM.

`O=C(Nc1ccno1)NC1CCCC1` [MSU-41546, 1-cyclopentyl-3-(1,2-oxazol-5-yl)urea]: the EC50 under setting [1] is 2150 nM.

`O=C(Nc1ccno1)NC1CCCCC1` [MSU-42002, 1-cyclohexyl-3-(1,2-oxazol-5-yl)urea] registered an EC50 under setting [1] of 1210 nM.

With `CN(C(=O)Nc1ccno1)c1ccc(Cl)cc1` [MSU-39451, 1-(4-chlorophenyl)-1-methyl-3-(1,2-oxazol-5-yl)urea], the EC50 under setting [2] worked out at 4140 nM. This counts as single-digit micromolar.

Under setting [2], `O=C(Nc1ccc(Cl)cc1)Nc1ccno1` [HC106F, 1-(4-chlorophenyl)-3-(1,2-oxazol-5-yl)urea] came in with a half-maximal effective concentration (EC50) of 1330 nM.

Under setting [2], `O=C(Nc1ccc(Cl)cc1)c1ccno1` [MSU-41422] yielded a 50% effective concentration (EC50) above 200000 nM.

Under setting [1], `O=C(NCc1ccccc1)Nc1ccno1` [MSU-41462, 1-benzyl-3-(1,2-oxazol-5-yl)urea] registered an EC50 of 1120 nM.

Under setting [1], `O=C(Nc1cccc(Cl)c1)Nc1ccno1` [MSU-39445, 1-(3-chlorophenyl)-3-(1,2-oxazol-5-yl)urea] showed a 50% effective concentration (EC50) of 750 nM.

Under setting [1], `CC(C)(C)c1ccc(NC(=O)Nc2ccno2)cc1` [MSU-41442, 1-(4-tert-butylphenyl)-3-(1,2-oxazol-5-yl)urea] registered an EC50 of 2080 nM.

For `O=C(Nc1ccc(Cl)c(Cl)c1)Nc1ccno1` [MSU-39452, 1-(3,4-dichlorophenyl)-3-(1,2-oxazol-5-yl)urea], the EC50 under setting [1] came out at 2470 nM.

`O=C(Nc1ccc(Cl)nc1)Nc1ccno1` [MSU-39448, 1-(6-chloropyridin-3-yl)-3-(1,2-oxazol-5-yl)urea] displayed a concentration giving a half-maximal response (EC50) under setting [1] of 1420 nM.

Take `COC(=O)c1ccc(NC(=O)Nc2ccno2)cc1` [MSU-41465, methyl 4-{[(1,2-oxazol-5-yl)carbamoyl]amino}benzoate]: under setting [1], the concentration for a half-maximal effect (EC50) amounted to 1160 nM.

Consider `O=C(Nc1cccc(Br)c1)Nc1ccno1` [MSU-42003, 1-(3-bromophenyl)-3-(1,2-oxazol-5-yl)urea], for which the EC50 under setting [1] was determined as 1940 nM.

As to `O=C(Cc1ccc(Cl)cc1)Nc1ccno1` [MSU-39449], the 50% effective concentration (EC50) under setting [2] came out at 5200 nM.

`O=C(Nc1ccc(-c2ccccc2)cc1)Nc1ccno1` [MSU-41443, 1-{[1,1′-biphenyl]-4-yl}-3-(1,2-oxazol-5-yl)urea] returned an EC50 under setting [1] of 11200 nM.

Consider `O=C(Nc1ccno1)Nc1ccc(Cl)cc1Cl` [HC106A], for which the concentration for a half-maximal effect (EC50) is, setting by setting: under setting [2], 2480 nM; under setting [1], 2480 nM.

Take `COc1ccc(NC(=O)Nc2ccno2)cc1` [MSU-39447, 1-(4-methoxyphenyl)-3-(1,2-oxazol-5-yl)urea]: the EC50 under setting [1] was determined as 610 nM.
